Test results reported in patent US5969096A (priority 1998, dated 1999).
Some compounds may have been tested in ways that are not shown here.

By UniProt entry, the sequences of proteins in these tests, tags left out. Residues count along the entry.
UniProt P02716, 25-520 limits assumed: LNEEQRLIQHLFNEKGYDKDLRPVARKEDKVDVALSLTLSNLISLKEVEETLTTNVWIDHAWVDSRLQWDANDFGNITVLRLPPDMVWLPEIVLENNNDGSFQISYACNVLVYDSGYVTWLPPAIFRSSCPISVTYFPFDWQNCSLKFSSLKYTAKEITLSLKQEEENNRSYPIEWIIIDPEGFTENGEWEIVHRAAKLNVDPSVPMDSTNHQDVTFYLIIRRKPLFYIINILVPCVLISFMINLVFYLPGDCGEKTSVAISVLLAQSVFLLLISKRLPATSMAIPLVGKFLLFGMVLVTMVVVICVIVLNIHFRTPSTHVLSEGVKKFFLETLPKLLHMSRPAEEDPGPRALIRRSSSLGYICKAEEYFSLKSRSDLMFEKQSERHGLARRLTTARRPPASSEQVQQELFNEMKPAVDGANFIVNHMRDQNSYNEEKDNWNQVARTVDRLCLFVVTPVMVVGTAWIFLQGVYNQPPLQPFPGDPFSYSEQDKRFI
UniProt P04756, 21-457 limits assumed: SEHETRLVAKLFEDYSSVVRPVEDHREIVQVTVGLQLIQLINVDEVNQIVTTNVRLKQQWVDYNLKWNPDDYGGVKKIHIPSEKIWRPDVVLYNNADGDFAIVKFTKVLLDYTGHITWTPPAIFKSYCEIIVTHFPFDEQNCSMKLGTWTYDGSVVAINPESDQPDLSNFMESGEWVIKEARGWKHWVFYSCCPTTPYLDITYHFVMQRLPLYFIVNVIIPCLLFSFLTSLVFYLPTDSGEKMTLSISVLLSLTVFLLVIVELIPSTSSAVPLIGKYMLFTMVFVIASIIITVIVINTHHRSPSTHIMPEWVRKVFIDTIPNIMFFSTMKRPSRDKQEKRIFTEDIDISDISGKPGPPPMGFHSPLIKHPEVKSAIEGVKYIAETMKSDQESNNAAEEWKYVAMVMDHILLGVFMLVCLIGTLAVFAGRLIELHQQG
UniProt P04760, 23-519 limits assumed: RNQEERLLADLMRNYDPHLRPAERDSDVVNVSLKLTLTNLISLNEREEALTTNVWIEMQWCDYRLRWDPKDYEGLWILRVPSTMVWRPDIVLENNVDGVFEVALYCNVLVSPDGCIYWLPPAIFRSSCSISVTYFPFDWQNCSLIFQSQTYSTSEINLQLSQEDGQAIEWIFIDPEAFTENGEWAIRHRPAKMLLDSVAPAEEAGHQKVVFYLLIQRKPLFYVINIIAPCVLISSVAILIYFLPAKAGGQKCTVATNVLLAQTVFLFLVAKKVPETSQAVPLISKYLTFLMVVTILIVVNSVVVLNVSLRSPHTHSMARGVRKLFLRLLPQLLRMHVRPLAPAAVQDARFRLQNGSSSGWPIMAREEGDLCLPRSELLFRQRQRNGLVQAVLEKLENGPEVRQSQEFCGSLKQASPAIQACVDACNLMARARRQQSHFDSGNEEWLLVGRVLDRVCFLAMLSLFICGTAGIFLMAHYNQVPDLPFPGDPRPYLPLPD
UniProt P09690, 24-501 limits assumed: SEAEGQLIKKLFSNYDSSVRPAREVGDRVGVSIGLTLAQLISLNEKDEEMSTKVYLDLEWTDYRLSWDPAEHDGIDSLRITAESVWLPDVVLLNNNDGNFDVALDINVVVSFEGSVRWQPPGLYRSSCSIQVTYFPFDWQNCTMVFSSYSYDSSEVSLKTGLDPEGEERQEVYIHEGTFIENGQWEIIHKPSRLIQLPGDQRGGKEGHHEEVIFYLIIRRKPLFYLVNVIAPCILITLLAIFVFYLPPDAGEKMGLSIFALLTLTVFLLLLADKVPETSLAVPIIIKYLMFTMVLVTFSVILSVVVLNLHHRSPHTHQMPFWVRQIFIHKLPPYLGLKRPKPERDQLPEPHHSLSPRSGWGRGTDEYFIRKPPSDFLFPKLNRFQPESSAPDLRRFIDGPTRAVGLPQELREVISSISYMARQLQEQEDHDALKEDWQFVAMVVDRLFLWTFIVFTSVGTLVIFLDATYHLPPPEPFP
UniProt P02710, 25-461 limits assumed: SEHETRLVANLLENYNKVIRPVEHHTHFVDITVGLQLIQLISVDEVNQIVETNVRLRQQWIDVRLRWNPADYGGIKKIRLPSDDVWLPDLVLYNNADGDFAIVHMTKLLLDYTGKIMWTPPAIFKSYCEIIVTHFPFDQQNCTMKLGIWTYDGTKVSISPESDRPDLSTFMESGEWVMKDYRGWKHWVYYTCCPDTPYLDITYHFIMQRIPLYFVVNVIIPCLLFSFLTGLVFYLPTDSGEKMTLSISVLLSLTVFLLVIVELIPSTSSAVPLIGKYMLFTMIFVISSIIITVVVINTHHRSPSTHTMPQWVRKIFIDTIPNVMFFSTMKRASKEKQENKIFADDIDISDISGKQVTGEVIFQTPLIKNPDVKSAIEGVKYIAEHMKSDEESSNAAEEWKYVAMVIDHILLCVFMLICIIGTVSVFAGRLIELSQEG
UniProt P02712, 25-493 limits assumed: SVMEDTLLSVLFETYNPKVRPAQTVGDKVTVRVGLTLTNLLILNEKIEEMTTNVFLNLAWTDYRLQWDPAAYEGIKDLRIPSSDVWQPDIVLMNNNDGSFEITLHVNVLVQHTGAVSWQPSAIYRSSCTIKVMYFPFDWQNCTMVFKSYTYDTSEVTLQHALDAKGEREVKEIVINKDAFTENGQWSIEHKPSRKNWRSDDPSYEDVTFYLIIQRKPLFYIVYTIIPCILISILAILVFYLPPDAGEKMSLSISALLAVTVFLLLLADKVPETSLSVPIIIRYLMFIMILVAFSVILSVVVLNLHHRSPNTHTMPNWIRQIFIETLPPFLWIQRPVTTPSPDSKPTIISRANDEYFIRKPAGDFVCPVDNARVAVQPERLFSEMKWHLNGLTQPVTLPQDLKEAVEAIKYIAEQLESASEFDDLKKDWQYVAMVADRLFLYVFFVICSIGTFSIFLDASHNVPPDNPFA
UniProt P02714, 18-506 limits assumed: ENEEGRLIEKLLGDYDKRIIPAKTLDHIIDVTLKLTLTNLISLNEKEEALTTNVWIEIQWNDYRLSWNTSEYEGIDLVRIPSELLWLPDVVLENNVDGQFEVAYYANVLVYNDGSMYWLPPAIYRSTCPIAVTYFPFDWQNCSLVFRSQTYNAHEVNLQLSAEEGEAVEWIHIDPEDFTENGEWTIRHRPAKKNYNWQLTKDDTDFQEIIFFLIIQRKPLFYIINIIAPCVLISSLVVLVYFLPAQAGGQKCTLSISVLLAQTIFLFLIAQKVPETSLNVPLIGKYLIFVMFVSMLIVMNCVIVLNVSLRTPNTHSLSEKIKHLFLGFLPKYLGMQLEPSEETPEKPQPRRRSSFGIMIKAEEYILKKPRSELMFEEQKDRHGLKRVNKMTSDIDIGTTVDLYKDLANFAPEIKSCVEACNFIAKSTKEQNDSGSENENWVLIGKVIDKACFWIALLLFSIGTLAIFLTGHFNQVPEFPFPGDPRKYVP
UniProt P02718, 22-522 limits assumed: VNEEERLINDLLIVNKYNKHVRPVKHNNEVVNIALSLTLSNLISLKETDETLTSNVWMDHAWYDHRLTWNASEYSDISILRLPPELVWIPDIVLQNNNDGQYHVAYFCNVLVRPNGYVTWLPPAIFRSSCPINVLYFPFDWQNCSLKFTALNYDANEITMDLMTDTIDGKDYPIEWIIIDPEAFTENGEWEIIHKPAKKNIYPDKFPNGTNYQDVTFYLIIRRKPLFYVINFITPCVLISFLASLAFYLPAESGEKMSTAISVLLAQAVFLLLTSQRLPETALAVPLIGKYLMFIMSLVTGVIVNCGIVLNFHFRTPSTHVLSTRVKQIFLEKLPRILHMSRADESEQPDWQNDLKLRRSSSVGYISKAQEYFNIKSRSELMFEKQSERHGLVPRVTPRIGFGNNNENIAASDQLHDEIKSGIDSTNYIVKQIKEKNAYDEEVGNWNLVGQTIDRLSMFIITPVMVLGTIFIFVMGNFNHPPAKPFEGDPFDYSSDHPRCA
UniProt P17787, 26-502 limits assumed: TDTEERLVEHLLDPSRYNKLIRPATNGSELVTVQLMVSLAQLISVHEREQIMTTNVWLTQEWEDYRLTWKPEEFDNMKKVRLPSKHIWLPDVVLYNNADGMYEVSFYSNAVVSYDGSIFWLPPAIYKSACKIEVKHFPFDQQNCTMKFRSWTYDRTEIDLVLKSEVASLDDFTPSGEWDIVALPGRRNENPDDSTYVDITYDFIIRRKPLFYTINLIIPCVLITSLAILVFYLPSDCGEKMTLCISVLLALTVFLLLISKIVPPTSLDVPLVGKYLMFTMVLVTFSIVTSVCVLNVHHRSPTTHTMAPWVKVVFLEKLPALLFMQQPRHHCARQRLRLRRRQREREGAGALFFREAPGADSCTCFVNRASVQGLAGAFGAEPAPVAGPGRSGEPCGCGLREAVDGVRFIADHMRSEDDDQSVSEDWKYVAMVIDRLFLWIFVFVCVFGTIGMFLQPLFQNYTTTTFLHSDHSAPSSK
UniProt P43681, 29-627 limits assumed: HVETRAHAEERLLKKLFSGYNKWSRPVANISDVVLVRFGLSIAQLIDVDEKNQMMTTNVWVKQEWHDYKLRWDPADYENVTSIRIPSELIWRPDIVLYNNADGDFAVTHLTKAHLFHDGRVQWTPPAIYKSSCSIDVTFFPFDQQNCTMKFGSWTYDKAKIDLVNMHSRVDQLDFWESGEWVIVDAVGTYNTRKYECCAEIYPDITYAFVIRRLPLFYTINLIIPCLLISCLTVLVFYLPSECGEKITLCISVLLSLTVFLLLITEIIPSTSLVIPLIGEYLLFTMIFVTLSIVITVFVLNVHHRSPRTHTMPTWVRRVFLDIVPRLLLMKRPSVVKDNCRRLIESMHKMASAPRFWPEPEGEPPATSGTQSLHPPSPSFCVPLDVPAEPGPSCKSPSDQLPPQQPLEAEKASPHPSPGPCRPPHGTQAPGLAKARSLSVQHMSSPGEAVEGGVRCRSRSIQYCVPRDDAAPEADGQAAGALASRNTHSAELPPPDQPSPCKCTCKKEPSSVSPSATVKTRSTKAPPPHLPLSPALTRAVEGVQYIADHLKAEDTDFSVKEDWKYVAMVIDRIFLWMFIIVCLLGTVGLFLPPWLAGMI

Tests used:
[1] = target: nAChR cloned from mouse skeletal muscle (Mus musculus, UniProt P02716+P04756+P04760+P09690); experiment: Acetylcholine-elicited current of nAChR expressed in Xenopus oocytes (mouse skeletal muscle mRNA)
[2] = target: nAChR from Torpedo californica electroplax (acetylcholine binding site) (Tetronarce californica, UniProt P02710+P02712+P02714+P02718); experiment: Binding competition with I125-α-bungarotoxin, Torpedo electroplax membranes; settings: Torpedo californica electroplax membrane fraction
[3] = target: nAChR from Torpedo electric organ (Tetronarce californica, UniProt P02710+P02712+P02714+P02718); experiment: Acetylcholine-elicited current of nAChR expressed in Xenopus oocytes (Torpedo electric organ mRNA)
[4] = target: nAChR from Torpedo californica electroplax (Tetronarce californica, UniProt P02710+P02712+P02714+P02718); experiment: Displacement of I125-conotoxin peptide, Torpedo electroplax membranes; settings: read-out: apparent IC50, displacement of I125-conotoxin peptide; Torpedo californica electroplax membrane fraction; unlabeled peptide
[5] = target: neuronal nicotinic acetylcholine receptor subtype (α4β2) (Homo sapiens, UniProt P17787+P43681); experiment: Neuronal nAChR subtype expressed in the oocyte system

CC(C)C[C@@H]1NC(=O)[C@@H]2CSSC[C@@H]3NC(=O)[C@H](CO)NC(=O)[C@H](C)NC(=O)[C@H](CO)NC(=O)[C@H](CO)NC(=O)[C@H](CSSC[C@H](NC(=O)[C@@H]4C[C@@H](O)CN4C(=O)[C@@H]4C[C@@H](O)CN4C(=O)[C@@H](N)Cc4c[nH]cn4)C(=O)N2)NC(=O)CNC(=O)[C@@H]2C[C@@H](O)CN2C(=O)[C@H](Cc2ccc(O)cc2)NC(=O)[C@H](CCCNC(=N)N)NC(=O)[C@H](CCCNC(=N)N)NC(=O)[C@H](CSSC[C@@H](C(=O)N[C@@H](CCC(N)=O)C(=O)N[C@@H](CCCNC(=N)N)C(N)=O)NC3=O)NC(=O)[C@H](CCCCN)NC(=O)CNC(=O)[C@H](Cc2ccc(O)cc2)NC1=O
effect on current normally elicited by acetylcholine [1]: inhibited the current normally elicited by acetylcholine | competition for I125-α-bungarotoxin binding [2]: does not compete for α-bungarotoxin binding | effect on current normally elicited by acetylcholine ([3]; Torpedo electric organ nAChR in Xenopus oocytes): inhibited the current normally elicited by acetylcholine | IC50 ([3]; read-out: IC50, inhibition of acetylcholine-elicited current, Torpedo receptor in Xenopus oocytes): 127 nM | IC50 [4]: 25 nM | effect on neuronal nAChR subtype [5]: no significant effect
